Pooled drug test results. Numbers come from NIAID ChemDB, via PubChem.

Common to all: whole-cell or culture tests; agent: HIV-1; read by: luciferase; endpoint: EC50

ECn is the concentration giving n% inhibition of infection, replication or growth. An empty or dashed field is not shown. Neighbouring rows are from separate reports. Two numbers with a dash give a range or band.

smiles,strain or isolate,cell line,changes,conditions,result
O=C(O)c1cc(-c2ncc(F)c3c(C(=O)C(=O)N4CCN(C(=O)c5ccccc5)CC4)c[nH]c23)n[nH]1,-,HeLa,-,-,<1 µM
COc1cccc(-c2ccnc3c(C(=O)C(=O)N4CCN(C(=O)c5ccccc5)CC4)c[nH]c23)n1,-,HeLa,-,-,<1 µM
COc1cnc(Cl)c2[nH]cc(C(=O)C(=O)N3CCC(=C(C#N)c4ccccn4)CC3)c12,-,HeLa,-,-,<1 µM
C[C@@H]1CN(C(=O)c2ccccc2)CCN1C(=O)C(=O)c1c[nH]c2c(-c3ccc(Cl)cc3)nccc12,-,HeLa,-,-,<1 µM
COc1cnc(-n2ccc(CC(O)C(C)C)n2)c2[nH]cc(C(=O)C(=O)N3CCN(C(=O)c4ccccc4)CC3)c12,-,HeLa,-,-,<1 µM
CC(=O)Oc1ccc(CCC(=O)CCc2ccc(NC(=O)Cc3cccs3)cc2)cc1OC(C)=O,BaL,TZM-bl,-,-,15.99 µM
Nc1c(C(=O)NCc2ccc(F)cc2F)c(=O)n(O)c2ncc(CCCCCO)cc12,-,HOS,+G insertion (GGGGAGT),-,0.0028 µM
Cc1ccc(C(C)N2CCc3cc(-c4c(C)nc(C)c([C@H](OC(C)(C)C)C(=O)O)c4N4CCC(C)(C)CC4)ccc3C2)cc1F,NL4-3,MT-2,-,-,≤0.1 µM
C[C@@H]1CN(C(=O)c2ccccc2)CCN1C(=O)C(=O)c1c[nH]c2c(-c3c[n+]([O-])cc(=O)[nH]3)nccc12,-,HeLa,-,-,<1 µM
NCCC(NC(=O)c1ccc(-c2ncc(Cl)cn2)[nH]1)c1nc(CO)cs1,HXB2,TZM-bl,-,pseudotyped,>15.8 µM
COc1cnc(-c2cnccn2)c2[nH]cc(C(=O)C(=O)N3CCC(=C(c4ccccc4)c4cnccn4)CC3)c12,-,HeLa,-,-,<1 µM
CC(=O)Oc1ccc(CCC(=O)CCc2ccc(NC(=O)C3CCCCC3)cc2)cc1OC(C)=O,BaL,TZM-bl,-,-,18.77 µM
COc1cnc(-n2cnc(C)n2)c2c1c(C(=O)C(=O)N1CCN(C(=O)c3ccccc3)CC1)cn2COP(=O)(O)O,NL4-3,U-87,-,-,0.0024 µM
C#C[C@@]1(COP(=O)(O)OP(=O)(O)OP(=O)(O)O)C=C[C@H](n2cc(C)c(=O)[nH]c2=O)O1,NL4-3,TZM-bl,P119S,-,0.85 µM
COc1cnc(-n2cc(C)nn2)c2[nH]cc(C(=O)C(=O)N3CCC(=C(c4ccccc4)c4cc(C)[nH]n4)CC3)c12,-,HeLa,-,-,<1 µM
CNC(=O)c1ncc(OC)c2c(C(=O)C(=O)N3CCN(C(=O)c4ccccc4)CC3)c[nH]c12,-,HeLa,-,-,0.0002–1 µM
CC(=O)Oc1ccc(/C=C/C(=O)CCc2ccc(NC(=O)C3CCCCC3)cc2)cc1OC(C)=O,BaL,TZM-bl,-,-,29.67 µM
Cc1ncn(-c2ncc(F)c3c(C(=O)C(=O)N4CCN(C(=O)c5ccccc5)[C@H](C)C4)c[nH]c23)n1,-,HeLa,-,-,≤0.0002 µM
O=C(C(=O)N1CCN(C(=O)c2ccccc2)CC1)c1c[nH]c2c(-c3ccccn3)ccnc12,-,HeLa,-,-,<1 µM
COc1cnc(-n2nc(C)cc2C)c2[nH]cc(C(=O)C(=O)N3CCN(C(=O)c4ccccc4)CC3)c12,-,HeLa,-,-,<1 µM
COc1ncc(OC)c2c(C(=O)C(=O)N3CCC(=C(c4ccccc4)S(C)(=O)=O)CC3)c[nH]c12,-,HeLa,-,-,1–5 µM
Cc1ccc(C(C)(C)C)cc1CN1CCc2cc(-c3c(C)nc(C)c([C@H](OC(C)(C)C)C(=O)O)c3N3CCC(C)(C)CC3)ccc2C1,NL4-3,MT-2,-,-,≤0.1 µM
CCCn1cc(C(=O)OCc2ccccc2)c(=O)c2c(N)nc(SC)nc21,NL4-3,HeLa,-,pseudotyped,>0.1 µM
Nc1ccn([C@@H]2CS[C@H](CO)O2)c(=O)n1,NL4-3,TZM-bl,M184V,-,3.596 µM
O=C(/C=C/c1ccc(O)c(O)c1)CCc1ccc(NC(=O)c2ccc([N+](=O)[O-])cc2)cc1,BaL,TZM-bl,-,-,>50 µM
O=c1oc2c(O)c(O)cc3c(=O)oc4c(O)c(O)cc1c4c23,JR-CSF,TZM-bl,-,48 h,34.11 µM
COc1nc2c(cc1N1CCc3cc(F)ccc3C1)c(=O)c(C(=O)O)cn2[C@H](CO)C(C)C,NL4-3,HeLa,-,pseudotyped,>0.1 µM
COc1cc(C)c(CN2CCc3cc(-c4c(C)nc(C)c([C@H](OC(C)(C)C)C(=O)O)c4N4CCC(C)(C)CC4)ccc3C2)c(F)c1,NL4-3,MT-2,-,-,≤0.1 µM
Nc1c(C(=O)NCc2ccc(F)cc2F)c(=O)n(O)c2ncc(CCS(=O)(=O)CCN3CCOCC3)cc12,-,HOS,-,-,0.195 µM
COc1ncc(OC)c2c(C(=O)C(=O)N3CCN(C(=O)c4ccccc4)CC3)c[nH]c12,-,HeLa,-,-,0.0002–1 µM
COc1cnc2c(=O)c(C(=O)O)cn([C@H](CO)C(C)C)c2c1,NL4-3,HeLa,-,pseudotyped,>0.1 µM
O=C(C(=O)N1CCN(C(=O)c2ccccc2)CC1)c1c[nH]c2c(C(=O)c3cccs3)ccnc12,-,HeLa,-,-,<1 µM
CCOC(=O)c1cn([C@H](CO)C(C)C)c2nc(OC)c(NCc3ccc(C)cc3)cc2c1=O,NL4-3,HeLa,-,pseudotyped,>0.1 µM
CNC(=O)c1ncn(-c2ncc(OC)c3c(C(=O)C(=O)N4CCN(C(=O)c5ccccc5)CC4)c[nH]c23)n1,-,HeLa,-,-,≤0.0002 µM
O=C(CCc1ccc(NC(=O)c2ccc([N+](=O)[O-])cc2)cc1)CCc1ccc(O)c(O)c1,BaL,TZM-bl,-,-,42.46 µM
Cc1nc(C)c([C@H](OC(C)(C)C)C(=O)O)c(N2CCC(C)(C)CC2)c1-c1ccc2c(c1)CCN(Cc1ccc(OC(F)(F)F)cc1F)C2,NL4-3,MT-2,-,-,≤0.1 µM
O=C(NCc1c(F)cc(F)cc1F)c1cn2c(c(O)c1=O)C(=O)N1[C@H]3CC[C@H](C3)O[C@@H]1C2,-,HOS,AGC (GGGAGC),-,<0.003 µM
CC(=O)Oc1ccc(/C=C/C(=O)CCc2ccc(NC(=O)c3ccc(C)cc3)cc2)cc1OC(C)=O,BaL,TZM-bl,-,-,11.22 µM
Cc1c(-c2c(C3CC3)c3c(c(C4CC4)c2[C@H](OC(C)(C)C)C(=O)O)CN(C(=O)c2cccc(F)c2)C3)cc(F)c2c1CCCO2,-,MT-4,-,-,0.145 µM
Cc1ccnc2c1NC(=O)c1cccnc1N2C1CC1,p8.9,HEK293T,-,-,55.64 nM
CNC(=O)c1ncc(OC)c2c(C(=O)C(=O)N3CCN(C(=O)c4ccccc4)[C@H](C)C3)c[nH]c12,-,HeLa,-,-,≤0.0002 µM
Cc1ccc(-c2c([C@H](OC(C)(C)C)C(=O)O)c(C(F)(F)F)c3c(c2C(F)(F)F)CN(C(C(=O)O)c2ccccc2)C3)cc1,-,MT-4,-,-,4.4 µM
COc1ccc(C(=C2CCN(C(=O)C(=O)c3c[nH]c4c(OC)ncc(OC)c34)CC2)c2ccccc2)cc1,-,HeLa,-,-,<1 µM
Cc1nnc(C(C)C)n1C1C[C@H]2CC[C@@H](C1)N2CC[C@H](NC(=O)C1CCC(F)(F)CC1)c1ccccc1,NLAD8,TZM-bl,-,-,0.208 µM

Again, the opening 5 rows:

| smiles | strain or isolate | cell line | changes | conditions | result |
|---|---|---|---|---|---|
| O=C(O)c1cc(-c2ncc(F)c3c(C(=O)C(=O)N4CCN(C(=O)c5ccccc5)CC4)c[nH]c23)n[nH]1 | - | HeLa | - | - | <1 µM |
| COc1cccc(-c2ccnc3c(C(=O)C(=O)N4CCN(C(=O)c5ccccc5)CC4)c[nH]c23)n1 | - | HeLa | - | - | <1 µM |
| COc1cnc(Cl)c2[nH]cc(C(=O)C(=O)N3CCC(=C(C#N)c4ccccn4)CC3)c12 | - | HeLa | - | - | <1 µM |
| C[C@@H]1CN(C(=O)c2ccccc2)CCN1C(=O)C(=O)c1c[nH]c2c(-c3ccc(Cl)cc3)nccc12 | - | HeLa | - | - | <1 µM |
| COc1cnc(-n2ccc(CC(O)C(C)C)n2)c2[nH]cc(C(=O)C(=O)N3CCN(C(=O)c4ccccc4)CC3)c12 | - | HeLa | - | - | <1 µM |